# Mutational tolerance of the Zika virus NS2B-NS3 protease

Values reported by Ni et al. 2025 (doi:10.1038/s41467-025-63602-z).

The scanned region of Zika virus MR766 is shown below (positions 1-308): NS2B is 2-131, NS3 begins at position 132.
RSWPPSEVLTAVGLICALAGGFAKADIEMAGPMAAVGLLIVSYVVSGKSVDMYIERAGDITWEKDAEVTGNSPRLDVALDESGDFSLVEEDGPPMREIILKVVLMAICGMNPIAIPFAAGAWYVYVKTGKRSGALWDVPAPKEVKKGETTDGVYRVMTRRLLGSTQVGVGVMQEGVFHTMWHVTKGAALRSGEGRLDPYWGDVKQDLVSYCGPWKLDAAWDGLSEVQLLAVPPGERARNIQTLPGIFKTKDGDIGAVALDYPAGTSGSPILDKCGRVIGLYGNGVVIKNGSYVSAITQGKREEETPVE

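Mutant virus pools were grown in human Huh-7.5 cells. Deep sequencing gave the change in frequency of each mutant relative to wild type, averaged over three replicate libraries (two for positions 207-308). The aim was to find sites where inhibitor-binding pockets cannot change.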

The number is log2 of the effect relative to wild type; negative values mean reduced growth, higher values better tolerance.
Substitutions are written as wild-type residue, site number, new residue.
This list holds changes to histidine only.

- A57H -> -1.36
- G58H -> -5.45
- D59H -> -3.11
- I60H -> -6.51
- T61H -> -1.23
- W62H -> -6.15
- E63H -> -3.77
- K64H -> -0.18
- D65H -> -4.51
- A66H -> -6.22
- E67H -> -5.32
- V68H -> -5.87
- T69H -> -6.61
- G70H -> -5.97
- N71H -> -5.26
- S72H -> -5.84
- P73H -> -3.64
- R74H -> 0.25
- L75H -> -7.50
- D76H -> 0.08
- V77H -> -6.23
- A78H -> 0.38
- L79H -> -6.95
- D80H -> -6.27
- E81H -> -6.11
- S82H -> 0.65
- G83H -> -4.95
- D84H -> -6.92
- F85H -> -4.94
- S86H -> 1.56
- L87H -> -6.34
- V88H -> -5.73
- E89H -> 0.06
- E90H -> -0.97
- D91H -> -1.29
- G92H -> -4.64
- P93H -> -5.24
- P94H -> -3.14
- M95H -> -3.88
- R96H -> -3.62
- E97H -> -3.59
- I98H -> -5.05
- I99H -> -5.40
- L100H -> -5.23
- K101H -> -6.12

3 of these entries, quoted again:

- G58H -> -5.45
- G92H -> -4.64
- D91H -> -1.29

Position 1 still belongs to NS2A. In the paper, -1 or higher counts as tolerated.
Positions 1-103, 104-206 and 207-308 were made and measured as separate libraries.
Values above 0 are not proof of better growth: six high scorers were tested one by one, five grew less well than wild type and one about as well.